Among the data in patent US20240269228A1, “SELECTIVE PENICILLAMINE SUBSTITUTION ENABLES DEVELOPMENT OF A POTENT ANALGESIC PEPTIDE THAT ACTS THROUGH A NON-OPIOID BASED MECHANISM” (published 2024) are fold reduction in potency against RgIA-5474 and fold drop in potency against RgIA-5474 values, retold here.

This experiment concerns the target human α9α10 nAChR (human) (UniProt Q9UGM1). Description: cell-based or functional assay.

As for RgIA-5687, the fold reduction in potency against RgIA-5474 came out at 28 fold.

Consider RgIA-5702, for which the fold drop in potency against RgIA-5474 was 7 fold.
